# Fold change is the IC50 on the isolate divided by the IC50 on a reference virus; 1 = unchanged, higher = more resistant. Changes are given against the subtype B consensus. No active / inactive call. The values were gathered from many studies (numbered anew) with different assays, which the source does not name. Most viruses are clinical isolates; some are laboratory strains or clones with known resistance changes. Isolates with mixed residues are left out; stretches that were not sequenced show no change. Round top values that many isolates share are read here as limits; other very high values and 0.1 may be limits too.
# Key:
# Test in all cases: fold change of IC50 against reference virus; higher = more resistant
# delavirdine = compound: CC(C)Nc1cccnc1N1CCN(C(=O)c2cc3cc(NS(C)(=O)=O)ccc3[nH]2)CC1 [delavirdine]
# Description: (§1)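 Cell-culture drug susceptibility tests of virus bearing the reverse transcriptase of each isolate, gathered from many studies.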
# efavirenz = compound: O=C1Nc2ccc(Cl)cc2[C@@](C#CC2CC2)(C(F)(F)F)O1 [efavirenz]
# Description: as §1
# stavudine = compound: Cc1cn([C@H]2C=C[C@@H](CO)O2)c(=O)[nH]c1=O [stavudine]
# Description: as §1
# zidovudine = compound: Cc1cn([C@H]2C[C@H](N=[N+]=[N-])[C@@H](CO)O2)c(=O)[nH]c1=O [zidovudine]
# Description: as §1
# zalcitabine = compound: Nc1ccn([C@H]2CC[C@@H](CO)O2)c(=O)n1 [zalcitabine]
# Description: as §1
# abacavir = compound: Nc1nc(NC2CC2)c2ncn([C@H]3C=C[C@@H](CO)C3)c2n1 [abacavir]
# Description: as §1
# nevirapine = compound: Cc1ccnc2c1NC(=O)c1cccnc1N2C1CC1 [nevirapine]
# Description: as §1
# didanosine = compound: O=c1[nH]cnc2c1ncn2[C@H]1CC[C@@H](CO)O1 [didanosine]
# Description: as §1
Test System,fold change of IC50 against reference virus (delavirdine),fold change of IC50 against reference virus (efavirenz),fold change of IC50 against reference virus (stavudine),fold change of IC50 against reference virus (zidovudine),fold change of IC50 against reference virus (zalcitabine),fold change of IC50 against reference virus (abacavir),fold change of IC50 against reference virus (nevirapine),fold change of IC50 against reference virus (didanosine)
"HIV-1 isolate 1568 (reverse transcriptase changes: I178M M184V, study 28)",0.9,0.4,0.6,0.4,1.9,3.5,0.7,1.3
"HIV-1 isolate 551 (reverse transcriptase changes: D123E I135T V179I M184V Y188L I202V F214L, study 40)",7,110,1,5,2,3,333,3
"HIV-1 isolate 1092 (reverse transcriptase changes: K65R K102Q S162C K277R, study 110)",1.1,0.8,1.7,0.4,2.5,2.6,1,1.8
"HIV-1 isolate 60 (reverse transcriptase changes: M41L E44D D67N L74V A98G V118I K122E D123N E169D G190E E203K Q207E H208Y L210W R211K T215Y K219N K223E, study 40)",47,77,5,216,2,10,135,7
"HIV-1 isolate 407 (reverse transcriptase changes: M41L V60I D67N K70R V75M K101E D123E M184V G190S G196E Q207H T215F K219E A272P Q278H E297K, study 109)",0.2,302,2,33,2.3,6.1,513,1.7
"HIV-1 isolate 239 (reverse transcriptase changes: P4S T39A A62V K65R D67N S68R T69N V75I F77L K103N V108I F116Y K122E Q151M K173T D177E I178L Y181S M184V Q207E R211K K219E S251R W252K T253G, study 40)",35,40,33,1000,36,17,100,60
"HIV-1 isolate 42 (reverse transcriptase changes: R83K R211S A272P K281R E297K S322L A376T V381I A400T, study 54)",0.9,0.8,0.8,0.7,1,0.9,1.1,0.8
"HIV-1 isolate 392 (reverse transcriptase changes: V35T T39L I50V V60I D67N K70R K122E D123S I135T K173S Q174K D177E V179I T200K Q207A R211S F214L K219Q V245Q T286A E291D, study 116)",0.3,0.2,1.6,10,1,1.2,0.2,0.9
"HIV-1 isolate 136 (reverse transcriptase changes: V60I D121Y K122E D177E I178V I202V V245E A272P K277R I293V P294S, study 40)",3,2,1,1,1,1,1,1
"HIV-1 isolate 644 (reverse transcriptase changes: K70R K103R M184V R211K F214L, study 28)",0.6,0.6,0.8,0.6,2.1,3.6,0.8,1.4
"HIV-1 isolate 976 (reverse transcriptase changes: M41L R83K D123E M184V G196E R211K T215Y A272P E297K, study 109)",0.2,0.2,1.2,2.2,1.6,2.5,0.3,1.4
"HIV-1 isolate 1172 (reverse transcriptase changes: M41L E44D G45E V60I T69D K101R K102Q V118I P133L I135T N175Y M184V T200S K201M E203K H208Y L210W R211K T215Y K219R, study 40)",1,1,7,103,19,25,4,7
"HIV-1 isolate 153 (reverse transcriptase changes: K64R K122P I135T I159V D177E I202V L210W R211K I293V Q334E R356K M357S S379G K390R, study 54)",1,1.1,1.2,1.1,1.3,0.8,1,1.2
"HIV-1 isolate 659 (reverse transcriptase changes: S68N I135T M184V T200A Q207G T215D, study 28)",0.6,0.5,0.7,0.7,1.6,2.7,1.1,1.3
"HIV-1 isolate 597 (reverse transcriptase changes: P4S E6D K20R M41L K43N E44D T69D V75M A98S K102Q V118I K122D K166R Y181C G190A T200M Q207E L210W R211K T215S E224D L228R, study 40)",56,51,3,688,3,4,314,2

# From the supplement of paper PMC3578754
